Assay [1] has as its system Tobacco mosaic virus. Put plainly: Antiviral activity against Tobacco mosaic virus (TMV) inoculated on whole Nicotiana tabacum leaves followed by smearing with 100 ug/mL compound solution on left side of leaves assessed as viral infection curative effect measured 3 to 4 days post viral infection.
In assay [2] the test system is Tobacco mosaic virus. Put plainly: Antiviral activity against Tobacco mosaic virus (TMV) pre-treated with 100 ug/mL compound for 30 min followed by inoculation on left side of Nicotiana tabacum leaves assessed as virus inactivation effect measured 3 to 4 days post viral infection.
Assay [3] relates to Tobacco mosaic virus. Put plainly: Antiviral activity against Tobacco mosaic virus (TMV) inoculated on fresh tobacco leaves followed by dipping into compound solution for 20 min and measured 72 hr post compound treatment by half-leaf method.
Assay [4] has as its system Tobacco mosaic virus. Put plainly: Antiviral activity against Tobacco mosaic virus (TMV) inoculated on fresh tobacco leaves followed by dipping into compound solution at 5 ug/mL for 20 min and measured 72 hr post compound treatment by half-leaf method.
In assay [5] the test system is Tobacco mosaic virus. Put plainly: Antiviral activity against Tobacco mosaic virus (TMV) inoculated on fresh tobacco leaves followed by dipping into compound solution at 25 ug/mL for 20 min and measured 72 hr post compound treatment by half-leaf method.
Assay [6] has as its system Tobacco mosaic virus. Put plainly: Antiviral activity against Tobacco mosaic virus (TMV) inoculated on fresh tobacco leaves followed by dipping into compound solution at 50 ug/mL for 20 min and measured 72 hr post compound treatment by half-leaf method.
In assay [7] the test system is Tobacco mosaic virus. Put plainly: Antiviral activity against Tobacco mosaic virus (TMV) inoculated on fresh tobacco leaves followed by dipping into compound solution at 100 ug/mL for 20 min and measured 72 hr post compound treatment by half-leaf method.
Assay [8] concerns Tobacco mosaic virus. Put plainly: Antiviral activity against Tobacco mosaic virus (TMV) inoculated on 100 ug/mL compound smeared Nicotiana tabacum leaves assessed as protective effect against viral infection measured 3 to 4 days post viral infection.

In the case of `COc1cc2c3c(c4cc(OC)c(OC)cc4c2cc1OC)CN1CCCC1C3.O=C(O)c1ccccc1` (centres undefined), the Activity is 44.9% in the assay with Tobacco mosaic virus [1], 69.6% with Tobacco mosaic virus [2] and 76.5% in the assay with Tobacco mosaic virus [8]. The molecule further gave an EC50 in the assay with Tobacco mosaic virus [3] of 11.2 µg/mL. Besides, the inhibition (INH) in the assay with Tobacco mosaic virus [4] was determined as 44.4%; with Tobacco mosaic virus [5], 48%; in the assay with Tobacco mosaic virus [6], 70%; with Tobacco mosaic virus [7] it was 93.7%.

Regarding `COc1cc2c3c(c4cc(OC)c(OC)cc4c2cc1OC)CN1CCCC1C3.O=[N+]([O-])c1cc([N+](=O)[O-])c(O)c([N+](=O)[O-])c1` (centres undefined), the results for the Activity in the assay on Tobacco mosaic virus [1], with Tobacco mosaic virus [2] and in the assay with Tobacco mosaic virus [8] were 51.7%, 57.8% and 45.5%, respectively. Also, the inhibition (INH) in the assay with Tobacco mosaic virus [4] stood at 7.1%; with Tobacco mosaic virus [5], 28.6%; with Tobacco mosaic virus [6], 36.4%; in the assay on Tobacco mosaic virus [7] it was 41.9%.

Regarding `COc1cc2c3c(c4cc(OC)c(OC)cc4c2cc1OC)CN1CCC[C@@H]1C3`, the results for the Activity in the assay on Tobacco mosaic virus [1], in the assay with Tobacco mosaic virus [2] and with Tobacco mosaic virus [8] were 55.2%, 62.2% and 47.7%, respectively. For the same molecule, the inhibition (INH) was found to be 0% in the assay on Tobacco mosaic virus [4], 5.3% with Tobacco mosaic virus [5], 55.2% with Tobacco mosaic virus [6] and 62.1% in the assay on Tobacco mosaic virus [7].

Regarding `COc1cc2c3c(c4cc(OC)c(OC)cc4c2cc1OC)CN1CCCC1C3.O=C(O)CCC(=O)O` (centres undefined), the Activity worked out at 44.8% in the assay with Tobacco mosaic virus [1], 71.1% with Tobacco mosaic virus [2] and 25% with Tobacco mosaic virus [8]. In addition, the inhibition (INH) in the assay with Tobacco mosaic virus [4] was determined as 11.1%; in the assay with Tobacco mosaic virus [5], 17.1%; in the assay on Tobacco mosaic virus [6], 51.9%; in the assay with Tobacco mosaic virus [7] it was 59.3%.

On to `COc1cc2c3c(c4cc(OC)c(OC)cc4c2cc1OC)CN1CCCC1C3.O=C(O)CC(O)(CC(=O)O)C(=O)O` (centres undefined), for which the Activity was found to be 39.1% with Tobacco mosaic virus [1], 82.6% with Tobacco mosaic virus [2] and 50% in the assay on Tobacco mosaic virus [8]. The 50% effective concentration (EC50) in the assay on Tobacco mosaic virus [3] came to 25.7 µg/mL. For the same molecule, the inhibition (INH) in the assay on Tobacco mosaic virus [5] is 48.9%; with Tobacco mosaic virus [6], 77.8%; with Tobacco mosaic virus [7], 91.7%.

As to `Br.COc1cc2c3c(c4cc(OC)c(OC)cc4c2cc1OC)CN1CCCC1C3` (centres undefined), the results for the Activity in the assay with Tobacco mosaic virus [1], in the assay on Tobacco mosaic virus [2] and in the assay with Tobacco mosaic virus [8] were 44.4%, 56.5% and 66.7%, respectively. A half-maximal response with Tobacco mosaic virus [3] (EC50) required 16.5 µg/mL. The inhibition (INH) in the assay on Tobacco mosaic virus [4] turned out to be 42.6%; with Tobacco mosaic virus [5], 47.4%; in the assay on Tobacco mosaic virus [6], 52.2%; in the assay with Tobacco mosaic virus [7] it was 78.6%.

Consider `CC(O)C(=O)O.COc1cc2c3c(c4cc(OC)c(OC)cc4c2cc1OC)CN1CCCC1C3` (centres undefined), for which the values for the Activity with Tobacco mosaic virus [1], in the assay with Tobacco mosaic virus [2] and in the assay with Tobacco mosaic virus [8] were 38.3%, 91.3% and 37.3%, respectively. A half-maximal response in the assay on Tobacco mosaic virus [3] (EC50) required 10.8 µg/mL. Also, the inhibition (INH) came to 32.8% in the assay on Tobacco mosaic virus [4], 62.9% with Tobacco mosaic virus [5], 87.9% in the assay with Tobacco mosaic virus [6] and 96.6% in the assay with Tobacco mosaic virus [7].

On to `COc1cc2c3c(c4cc(OC)c(OC)cc4c2cc1OC)CN1CCC[C@H]1C3`, for which the Activity in the assay on Tobacco mosaic virus [1] stood at 48.3%; with Tobacco mosaic virus [2] it was 24.4%; in the assay on Tobacco mosaic virus [8], 47.7%. Further, the inhibition (INH) in the assay with Tobacco mosaic virus [4] was determined as 41.7%; with Tobacco mosaic virus [5], 50.6%; in the assay with Tobacco mosaic virus [6], 35.2%; in the assay on Tobacco mosaic virus [7], 43.7%.

For the molecule `COc1cc2c3c(c4cc(OC)c(OC)cc4c2cc1OC)CN1CCCC1C3.O=C(O)c1ccccc1O` (centres undefined), the Activity amounted to 72.4% in the assay with Tobacco mosaic virus [1], 60% in the assay on Tobacco mosaic virus [2] and 56.8% in the assay with Tobacco mosaic virus [8]. The inhibition (INH) in the assay on Tobacco mosaic virus [4] was found to be 23.7%; in the assay on Tobacco mosaic virus [5] it was 24.3%; in the assay on Tobacco mosaic virus [6], 54.6%; in the assay on Tobacco mosaic virus [7], 59%.

With `COc1cc2c3c(c4cc(OC)c(OC)cc4c2cc1OC)CN1CCCC1C3.Cl` (centres undefined), the Activity with Tobacco mosaic virus [1] amounted to 34.7%; in the assay with Tobacco mosaic virus [2] it was 60.9%; in the assay with Tobacco mosaic virus [8], 78.4%. Besides, the EC50 in the assay on Tobacco mosaic virus [3] is 10 µg/mL. For the same molecule, the inhibition (INH) with Tobacco mosaic virus [4] was 30.2%; in the assay with Tobacco mosaic virus [5], 75.4%; in the assay with Tobacco mosaic virus [6], 88.2%; with Tobacco mosaic virus [7] it was 92.3%.

Turning to `COc1cc2c3c(c4cc(OC)c(OC)cc4c2cc1OC)CN1CCCC1C3` (centres undefined), the Activity in the assay on Tobacco mosaic virus [1] turned out to be 43.5%; in the assay with Tobacco mosaic virus [2] it was 73.9%; in the assay with Tobacco mosaic virus [8], 63.3%. Also, the inhibition (INH) with Tobacco mosaic virus [4] is 34%; with Tobacco mosaic virus [5] it was 41.2%; with Tobacco mosaic virus [6], 42.5%; in the assay on Tobacco mosaic virus [7], 57.6%.

For the molecule `COc1cc2c3c(c4cc(OC)c(OC)cc4c2cc1OC)CN1CCCC1C3.I` (centres undefined), the Activity in the assay on Tobacco mosaic virus [1] was determined as 37.8%; in the assay with Tobacco mosaic virus [2], 39.1%; in the assay on Tobacco mosaic virus [8], 58.8%. For the same molecule, the EC50 in the assay on Tobacco mosaic virus [3] is less than 5 µg/mL. Further, the inhibition (INH) in the assay on Tobacco mosaic virus [4] turned out to be 62.1%; with Tobacco mosaic virus [5] it was 76.8%; in the assay on Tobacco mosaic virus [6], 89.9%; in the assay on Tobacco mosaic virus [7] it was 91.6%.

For the molecule `COc1cc2c3c(c4cc(OC)c(OC)cc4c2cc1OC)CN1CCCC1C3.O=C(O)C(O)C(O)C(=O)O` (centres undefined), the Activity in the assay on Tobacco mosaic virus [1] worked out at 44.8%; in the assay on Tobacco mosaic virus [2], 64.4%; in the assay with Tobacco mosaic virus [8], 54.6%. In the assay with Tobacco mosaic virus [3], this molecule registered a 50% effective concentration (EC50) of 27.5 µg/mL. In addition, the inhibition (INH) in the assay with Tobacco mosaic virus [4] is 6.7%; in the assay on Tobacco mosaic virus [5] it was 35.7%; in the assay on Tobacco mosaic virus [6] it was 64%; in the assay on Tobacco mosaic virus [7], 94.4%.

Consider `COc1cc2c3c(c4cc(OC)c(OC)cc4c2cc1OC)CN1CCCC1C3.O=C(O)CC(O)C(=O)O` (centres undefined), for which the Activity in the assay on Tobacco mosaic virus [1] was 42.1%; in the assay on Tobacco mosaic virus [2], 80.4%; in the assay on Tobacco mosaic virus [8], 50%. In the assay with Tobacco mosaic virus [3], this molecule displayed an EC50 of less than 25 µg/mL. Also, the inhibition (INH) in the assay with Tobacco mosaic virus [5] stood at 65.7%; in the assay on Tobacco mosaic virus [6], 61.5%; in the assay with Tobacco mosaic virus [7] it was 66.7%.

(Values after ChEMBL document CHEMBL3046613 (J Agric Food Chem, 2010).)
